System: infant intestinal microbiota
Assay: quad-SHIME model of infant intestinal microbiota (SCFA, glycoprofile)
Set-up: species or system human
Excerpt: A faecal sample from a healthy infant born via C-section, exclusively breastfed with no history of antibiotic usage, was used as inoculum to simulate the infant intestinal microbiota in the colon compartments of a quad-SHIME®—a dynamic model of the human gastrointestinal tract comprises 4 SHIME® units running in parallel and each SHIME® unit is composed of 3 reactors simulating the stomach and small intestine, proximal and distal colons.

## C[C@@H]1O[C@@H](O[C@H]2[C@H](O[C@H]3[C@H](O)[C@@H](O)C(O)O[C@@H]3CO)O[C@H](CO)[C@H](O)[C@@H]2O)[C@@H](O)[C@H](O)[C@@H]1O (stereo partly drawn) [2′-FL, α-L-Fuc-(1→2)-β-D-Gal-(1→4)-D-Glc]
In the presence of scGOS/IcFOS
  metabolism of 2′-FL by microbiota (glycoprofile): slowly metabolised across the proximal and distal colon
Supplemented alone
  metabolism of 2′-FL by microbiota (glycoprofile): not metabolized

Reference: patent publication US20220079962A1, “NUTRITIONAL COMPOSITION COMPRISING 2'FUCOSYLLACTOSE AND DIETARY BUTYRATE” (N.V. Nutricia, priority 2019, published 2022)
